Biological target: human voltage-gated sodium channel NaV1.7 (human)
Assay: whole-cell voltage clamp (kinetics of block of Na+ current)

In the case of “μ-Conotoxin KIIIA (from UniProt P0C195 5-22) (peptide)”, the Kd is reported as 59 nM, the koff is reported as 5e-05 s⁻¹ and the kon is reported as 900 M⁻¹ s⁻¹.

Reference: paper PMC10060530, “Molecular determinants of μ-conotoxin KIIIA interaction with the human voltage-gated sodium channel NaV1.7” (2023)
